Data reported in US8497361B2, “Topoisomerase binding probe and method of use” (priority 2010, dated 2013).

Sequences of proteins named here, by UniProt entry; tags and fusion partners are left off. Residues count along the entry.
UniProt Q5NHE7, 1-805: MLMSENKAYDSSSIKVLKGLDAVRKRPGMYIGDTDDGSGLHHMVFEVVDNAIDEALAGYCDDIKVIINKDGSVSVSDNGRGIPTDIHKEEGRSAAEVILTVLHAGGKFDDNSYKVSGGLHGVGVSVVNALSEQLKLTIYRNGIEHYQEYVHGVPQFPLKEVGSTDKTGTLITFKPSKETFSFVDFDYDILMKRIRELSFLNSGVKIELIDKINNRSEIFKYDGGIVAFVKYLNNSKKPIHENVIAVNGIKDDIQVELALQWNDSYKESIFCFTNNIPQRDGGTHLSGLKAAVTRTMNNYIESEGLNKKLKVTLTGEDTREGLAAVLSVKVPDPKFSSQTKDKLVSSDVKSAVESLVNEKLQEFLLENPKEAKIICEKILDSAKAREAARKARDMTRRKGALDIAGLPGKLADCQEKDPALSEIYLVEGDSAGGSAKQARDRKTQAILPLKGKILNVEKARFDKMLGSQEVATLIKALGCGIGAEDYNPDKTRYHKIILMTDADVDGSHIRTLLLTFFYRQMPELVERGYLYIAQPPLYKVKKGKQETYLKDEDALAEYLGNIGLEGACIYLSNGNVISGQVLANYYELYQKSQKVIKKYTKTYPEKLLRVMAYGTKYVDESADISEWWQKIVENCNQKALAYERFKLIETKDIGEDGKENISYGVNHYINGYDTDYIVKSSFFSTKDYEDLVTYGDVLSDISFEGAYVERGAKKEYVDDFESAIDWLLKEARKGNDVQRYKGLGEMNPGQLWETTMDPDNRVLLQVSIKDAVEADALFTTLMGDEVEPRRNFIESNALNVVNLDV

Molecular target: F. tularensis GyrB (Francisella tularensis subsp. tularensis, UniProt Q5NHE7)
Experiment: biochemical
Type: binding

CO[C@@H]1[C@@H](OC(N)=O)[C@@H](O)[C@H](Oc2ccc3c(O)c(NC(=O)c4ccc(O)c(CC=C(C)C)c4)c(=O)oc3c2C)OC1(C)C [novobiocin]
Ki: 11 nM
